Measured values from several laboratories, pooled; numbers as filed in NIAID ChemDB.

All rows: host cell toxicity; cell line: H9; endpoint: CC50

Neighbouring rows are from separate reports.

structure | result
Cc1ccc(C(=O)OC[C@H]2O[C@@H](n3cc(-c4ccoc4)c(N)nc3=O)C[C@@H]2OC(=O)c2ccc(C)cc2)cc1 | >10 µg/mL
COCCCCCCCCCCCC(=O)O | >100 µM
CC(C)(C)OC(=O)N[C@@H](Cc1ccccc1)[C@@H](O)C[C@@H](Cc1ccc(OCP(=O)(O)O)cc1)C(=O)N[C@H]1c2ccccc2C[C@H]1O | >200 µM
CCc1cc(NCc2nc3c(Cl)ccc(Cl)c3o2)c(=O)[nH]c1C | >60 µM
CC(C)=CCC/C(C)=C/C[N@@+]12CCc3cc(O)c(O)cc3[C@H]1Cc1cc(O)c(O)cc1C2 | >25 µg/mL
CCCCCCCCCCCCCCCCNc1ccn([C@H]2C[C@H](OP(=O)(O)OC[C@H]3O[C@@H](n4cc(C)c(=O)[nH]c4=O)C[C@@H]3N=[N+]=[N-])[C@@H](CO)O2)c(=O)n1 | 120 µM
CC1(C)Oc2ccc3ccc(=O)oc3c2[C@@H](OC(=O)C23CCC(C)(C(=O)O2)C3(C)C)[C@H]1OC(=O)C12CCC(C)(C(=O)O1)C2(C)C | 32–160 µM
C[C@@H]1CC[C@]2(C(=O)O)CC[C@]3(C)C(=CCC4[C@]5(C)C(CC[C@]43C)C(C)(C)[C@@H](O)[C@@H](O)[C@H]5O)C2[C@]1(C)O | >20 µg/mL
CCOC(=O)c1ccc(N[C@@H]2c3cc(OC)c(OC)cc3[C@@H](c3cc(OC)c(O)c(OC)c3)[C@H]3C(=O)OC[C@@H]32)cc1 | 0.12 µg/mL
Nc1nc2c(ncn2[C@H]2CC[C@@H](CO)O2)c(=O)[nH]1 | 400 µM
CC1(C)Oc2ccc3ccc(=O)oc3c2[C@@H](OC(=O)c2cccc(Cl)c2)[C@@H]1OC1CCCCO1 | 40–200 µM
Cc1cn([C@H]2C[C@H](N=[N+]=[N-])[C@@H](CO)O2)c(=O)[nH]c1=O | >300 µg/mL
Cc1cn([C@H]2C[C@H](N=[N+]=[N-])[C@@H](CO)O2)c(=O)[nH]c1=O | >50 µg/mL
CC1(C)Oc2ccc3ccc(=O)oc3c2[C@@H](OC(=O)C23CCC(C)(C(=O)O2)C3(C)C)[C@H]1OC(=O)C12CCC(C)(C(=O)O1)C2(C)C | 35 µM
Cc1ccc(C(=O)OC[C@H]2O[C@@H](n3cc(-c4ccncc4)c(N)nc3=O)C[C@@H]2OC(=O)c2ccc(C)cc2)cc1 | >10 µg/mL
O=c1cc(-c2ccc(O)cc2)oc2cc(O)cc(O)c12 | 35 µg/mL
Nc1nc2c(ncn2[C@H]2C=C[C@@H](CO)O2)c(=O)o1 | >500 µg/mL
Cc1cc2ccc(=O)oc2c2c1OC(C)(C)[C@H](OC(=O)C13CCC(C)(C(=O)O1)C3(C)C)[C@@H]2OC(=O)C12CCC(C)(C(=O)O1)C2(C)C | 33 µM
CC1(C)CC[C@]2(C(=O)O)CC[C@]3(C)C(=CC[C@@H]4[C@@]5(C)CC[C@H](O)C(C)(C)[C@@H]5CC[C@]43C)[C@@H]2C1 | 34.3 µg/mL
CCCCCCCCCCCCCCCCCCCCCCOC[C@H](CO[C@]1(C(=O)O)C[C@H](OS(=O)(=O)O)[C@@H](NC(C)=O)[C@H]([C@H](OS(=O)(=O)O)[C@@H](COS(=O)(=O)O)OS(=O)(=O)O)O1)OCCCCCCCCCCCCCCCCCCCCCC | >200 µM
CCCCCCc1ccsc1-c1cn([C@H]2C[C@H](O)[C@@H](CO)O2)c(=O)[nH]c1=O | >10 µg/mL
O=C(O)c1cc(O)cc(O)c1N=Nc1ccc(/C=C/c2ccc(N=Nc3c(O)cc(O)cc3C(=O)O)cc2S(=O)(=O)O)c(S(=O)(=O)O)c1 | 135 µg/mL
O=c1ccc2cc(O)c(O)cc2o1 | 28.11 µg/mL
O=C1NC(=O)C(c2ccccc2)(c2ccccc2)N1 | >40 µg/mL
O=c1cc(-c2ccccc2)sc2cc(O)c(O)cc12 | 1.8 µg/mL
CC(C)(C)OC(=O)N[C@@H](Cc1ccccc1)[C@@H](O)C[C@@H](Cc1ccc(OCP(=O)(OCc2ccccc2)OCc2ccccc2)cc1)C(=O)N[C@H]1c2ccccc2C[C@H]1O | >200 µM
COc1cc2c(cc1OC)[C@@H](Nc1ccc(F)cc1)[C@H]1COC(=O)[C@@H]1[C@@H]2c1cc(OC)c(O)c(OC)c1 | 0.166 µg/mL
O=c1cc(-c2ccccc2)sc2cc(O)ccc12 | 40 µg/mL
C[C@@H]1CC[C@]2(C(=O)O)CC[C@]3(C)C(=CC[C@@H]4[C@@]5(C)C[C@@H](O)[C@H](O)C(C)(C)[C@@H]5CC[C@]43C)[C@@H]2[C@]1(C)O | 15 µg/mL
Cc1cn([C@H]2C[C@H](F)[C@@H](CO)O2)c(=O)[nH]c1=O | >0.016 µM
CCOC(=O)COc1ccc(C[C@H](C[C@H](O)[C@H](Cc2ccccc2)NC(=O)OC(C)(C)C)C(=O)N[C@H]2c3ccccc3C[C@H]2O)cc1 | 140 µM
Nc1nc2c(ncn2[C@@H]2O[C@H](COP(=O)(O)O)[C@@H](O)[C@H]2O)c(=O)o1 | >500 µg/mL
COc1cccc2sc(-c3ccccc3)cc(=O)c12 | 7 µg/mL
O=C1OC(C2OC(=O)c3cc(O)c(O)c(O)c3-c3c(O)c(O)c4oc(=O)c5c(c(O)c(O)c6oc(=O)c3c4c65)-c3c(cc(O)c(O)c3O)C(=O)OCC2O)C2OC(=O)c3c(c(O)c(O)c(O)c3C2O)-c2c1cc(O)c(O)c2O | <20 µg/mL
CC(C)c1cc(=O)c2ccc3c(c2o1)[C@@H](OC(=O)C12CCC(C)(C(=O)O1)C2(C)C)[C@@H](OC(=O)C12CCC(C)(C(=O)O1)C2(C)C)C(C)(C)O3 | 33.4 µM
Cc1cn([C@H]2C[C@H](N=[N+]=[N-])[C@@H](CO)O2)c(=O)[nH]c1=O | 1.9 µM
COc1cc([C@@H]2c3cc4c(cc3[C@H](O)[C@H]3COC(=O)[C@H]23)OCO4)cc(OC)c1OC | 0.0025 µg/mL
CCCCCCc1ccsc1-c1cn([C@@H]2C[C@H](OC(=O)c3ccc(C)cc3)[C@@H](COC(=O)c3ccc(C)cc3)O2)c(=O)[nH]c1=O | 10 µg/mL
CC(C)(C)OC(=O)NCCC(=O)Nc1cccc(C(c2c(O)c3c(oc2=O)CCCCCC3)C2CC2)c1 | >100 µM
COc1cc([N+](=O)[O-])ccc1N[C@@H]1c2cc3c(cc2[C@@H](c2cc(OC)c(O)c(OC)c2)[C@H]2C(=O)OC[C@@H]21)OCO3 | 0.23 µg/mL
Cc1cn([C@H]2C[C@H](N=[N+]=[N-])[C@@H](CO)O2)c(=O)[nH]c1=O | 60.4 µM
O=c1[nH]cnc2c1ncn2[C@H]1CC[C@@H](CO)O1 | >1 µg/mL
CC(C)=CCC/C(C)=C/COc1cc2cc[n+](C)c(Cc3ccc(O)c(O)c3)c2cc1OC/C=C(\C)CCC=C(C)C | 17.95 µg/mL
CC(C)(C)OC(=O)N[C@@H](Cc1ccccc1)[C@@H](O)C[C@@H](Cc1ccc(OCC(=O)O)cc1)C(=O)N[C@H]1c2ccccc2C[C@H]1O | >200 µM
CC(C)=CCC/C(C)=C/CN1CCc2cc(O)c(O)cc2[C@H]1Cc1ccc(O)c(O)c1 | 24.59 µg/mL
Nc1nc(=O)n([C@H]2C[C@H](O)[C@@H](CO)O2)cc1-c1ccncc1 | >10 µg/mL
Nc1nc2c(ncn2[C@H]2CC[C@@H](CO)C2)c(=O)o1 | >500 µg/mL
CC(C)(S)[C@@H](N)C(=O)O | >500 µg/mL
C[C@@H]1[C@H](O)[C@@H](C)/C=C/C=C/CC/C=C/C=C/C=C/C=C/C(O[C@H]2O[C@H](C)[C@@H](O)[C@H](N)[C@@H]2O)CC2O[C@](O)(CC(O)C(O)CCC(O)CC(O)CC(O)CC(=O)O[C@H]1C)CC(O)C2C(=O)O | >10 µg/mL
Nc1ccn([C@@H]2O[C@H](CO)[C@@H](O)C2(F)F)c(=O)n1 | 0.01 µM
COc1cc2ccnc(Cc3ccc4c(c3)OCO4)c2cc1OC | 21.6 µg/mL
COc1ccc2c(c1)N(C(=O)OC(C)C)[C@@H](CSC)C(=S)N2 | >290 µM
O=C(O)P(=O)(O)O | >680 µM
Nc1ncnc2c1ncn2CCOCP(=O)(O)O | 81 µM
COc1cc2c(cc1OC)CC[NH+]=C2 | 23.6 µg/mL
C[C@@H]1CC[C@]2(C(=O)O)CC[C@]3(C)C(=CC[C@@H]4[C@@]5(C)C[C@@H](O)[C@@H](O)C(C)(C)[C@@H]5CC[C@]43C)[C@@H]2[C@]1(C)O | 37.5 µg/mL
CC(C)C(=O)O[C@@H]1[C@H](OC(=O)C23CCC(C)(C(=O)O2)C3(C)C)c2c(ccc3c(=O)cc(-c4ccccc4)oc23)OC1(C)C | >42.5 µM
CC(=O)O[C@H]1CCC2C3CC[C@@]45O[C@@H]4C(=O)C(S(C)(=O)=O)C[C@]5(C)C3CC[C@@]21C | 1.29 µM
Cc1cc(=O)n(C(=O)OC(C)(C)C)c2c3c(ccc12)OC(C)(C)[C@H](OC(=O)C12CCC(C)(C(=O)O1)C2(C)C)[C@@H]3OC(=O)C12CCC(C)(C(=O)O1)C2(C)C | >157 µM
COc1ccc(-c2cc(=O)c3c(O)cc(O[C@@H]4O[C@H](CO)[C@H](O)[C@H](O)[C@H]4O)cc3o2)cc1 | 37 µg/mL
CCOCc1cc(=O)c2ccc3c(c2o1)[C@@H](OC(=O)C12CCC(C)(C(=O)O1)C2(C)C)[C@@H](OC(=O)C(C)C)C(C)(C)O3 | >43.9 µM
CC(=O)O[C@@H]1[C@H](OC(=O)CC(C)C)c2c(ccc3ccc(=O)oc23)OC1(C)C | 4–20 µg/mL
CC(C)(CC(=O)O)CC(=O)O[C@H]1CC[C@@]2(C)C(CC[C@]3(C)C2CC=C2C4CC(C)(C)CC[C@]4(C(=O)O)CC[C@]23C)C1(C)C | 14.2 µg/mL
CC(=O)Oc1cc2sc(-c3ccccc3)cc(=O)c2cc1OC(C)=O | 3 µg/mL
Cc1cn([C@H]2C[C@H](N=[N+]=[N-])[C@@H](CO)O2)c(=O)[nH]c1=O | 60 µM
Oc1cc2c(cc1O)C[NH+]1CCc3cc(O)c(O)cc3C1C2 | 18.13 µg/mL
COc1cc([C@@H]2c3cc4c(cc3[C@@H](O)[C@H]3COC(=O)[C@H]23)OCO4)cc(OC)c1OC(=O)OCc1ccccc1 | 0.201 µg/mL
Cc1ccc(C(=O)OC[C@H]2O[C@@H](n3cc(-c4cccn4C)c(N)nc3=O)C[C@@H]2OC(=O)c2ccc(C)cc2)cc1 | <10 µg/mL
CCc1nccc2cc(O)c(O)cc12 | 2.08 µg/mL
COc1c(O)c(I)c2c(c1OC)-c1c(c(I)c(O)c(OC)c1OC)C[C@H](C)[C@H](C)C2 | 22.5 µM
Oc1cc2c(cc1O)C1Cc3ccc(O)c(O)c3CN1CC2 | >25 µg/mL
COc1ccc(Cc2nccc3c(OC)c(OC)ccc23)cc1OC | 10.2 µg/mL
C[C@]12CCC3C(CC[C@@]45O[C@@H]4C(=O)C(S(C)(=O)=O)C[C@]35C)C1CC[C@@H]2O | 5.46 µM
Cc1cc(=O)c2ccc3c(c2o1)[C@@H](OC(=O)C12CCC(C)(C(=O)O1)C2(C)C)[C@@H](OC(=O)C(C)C)C(C)(C)O3 | 40.7 µM

The first 10 rows once more:

Cc1ccc(C(=O)OC[C@H]2O[C@@H](n3cc(-c4ccoc4)c(N)nc3=O)C[C@@H]2OC(=O)c2ccc(C)cc2)cc1 ; result: >10 µg/mL
COCCCCCCCCCCCC(=O)O ; result: >100 µM
CC(C)(C)OC(=O)N[C@@H](Cc1ccccc1)[C@@H](O)C[C@@H](Cc1ccc(OCP(=O)(O)O)cc1)C(=O)N[C@H]1c2ccccc2C[C@H]1O ; result: >200 µM
CCc1cc(NCc2nc3c(Cl)ccc(Cl)c3o2)c(=O)[nH]c1C ; result: >60 µM
CC(C)=CCC/C(C)=C/C[N@@+]12CCc3cc(O)c(O)cc3[C@H]1Cc1cc(O)c(O)cc1C2 ; result: >25 µg/mL
CCCCCCCCCCCCCCCCNc1ccn([C@H]2C[C@H](OP(=O)(O)OC[C@H]3O[C@@H](n4cc(C)c(=O)[nH]c4=O)C[C@@H]3N=[N+]=[N-])[C@@H](CO)O2)c(=O)n1 ; result: 120 µM
CC1(C)Oc2ccc3ccc(=O)oc3c2[C@@H](OC(=O)C23CCC(C)(C(=O)O2)C3(C)C)[C@H]1OC(=O)C12CCC(C)(C(=O)O1)C2(C)C ; result: 32–160 µM
C[C@@H]1CC[C@]2(C(=O)O)CC[C@]3(C)C(=CCC4[C@]5(C)C(CC[C@]43C)C(C)(C)[C@@H](O)[C@@H](O)[C@H]5O)C2[C@]1(C)O ; result: >20 µg/mL
CCOC(=O)c1ccc(N[C@@H]2c3cc(OC)c(OC)cc3[C@@H](c3cc(OC)c(O)c(OC)c3)[C@H]3C(=O)OC[C@@H]32)cc1 ; result: 0.12 µg/mL
Nc1nc2c(ncn2[C@H]2CC[C@@H](CO)O2)c(=O)[nH]1 ; result: 400 µM

CCn is the concentration with n% toxicity to the cells. a–b is a range or a potency band.